A mixed list of measured activities; the numbers were collected in NIAID ChemDB.

All rows: whole-cell or culture tests; organism: Mycobacterium tuberculosis

Blank or dashed fields: not listed here.

structure | measure | dose | strain | method | result
CC(=O)Oc1ccccc1C(OC(C)=O)OC(C)=O | MIC |  | H37Rv |  | >100 µg/mL
NNC(=O)c1ccncc1 | MIC |  | H37Ra | resazurin | 0.06 µg/mL
O=C(/N=C/c1ccccc1[N+](=O)[O-])NCCCN1c2ccccc2Sc2ccccc21 | inhibition | 25 µg/mL | H37Rv | agar | 38%
O=C(O)[C@@H]1CCCN1 | MIC |  | H37Rv |  | >100 µg/mL
CC(NCCNCc1ccc(C(F)(F)F)cc1)c1c[nH]c2ccccc12 | MIC |  |  |  | 25 µM
CO[C@H]1/C=C/O[C@@]2(C)Oc3c(C)c(O)c4c(O)c(c5c(c4c3C2=O)NC2(CCN(CC(C)C)CC2)N=5)=NC(=O)/C(C)=C\C=C\[C@H](C)[C@H](O)[C@@H](C)[C@@H](O)[C@@H](C)[C@H](OC(C)=O)[C@@H]1C | MIC |  | CSU25 |  | ≤0.125 µg/mL
COc1ccc(C(=O)NN)c(OC)c1 | MIC |  |  |  | 200 µg/mL
O=C1NC(CN2CCCCC2)C(=O)NC1CN1CCCCC1 | MIC bound |  | H37Rv | BACTEC | >12.5 µg/mL
O=[N+]([O-])c1cn2c(n1)OC[C@@H](OCc1ccc(Oc3ccc(OC(F)(F)F)cc3)cc1)C2 | MIC90 |  |  | low oxygen | 0.87 µM
CSC(=S)N/N=C(\C)c1ccccn1 | MIC |  | H37Rv | BACTEC | 64 µg/mL
O=[N+]([O-])c1cn2c(n1)OC[C@@H](OCc1ccc(-c3ccc(Oc4ccc(C(F)(F)F)cc4)cc3)cc1)C2 | MIC90 |  |  | resazurin | 0.12 µM
Cl.NCC(F)(F)F | MIC |  | H37Rv |  | >100 µg/mL
Nc1nnc2nc(CC(=O)c3cccc([N+](=O)[O-])c3)c(CC(=O)c3cccc([N+](=O)[O-])c3)nn12 | MIC bound |  | H37Rv | BACTEC | >12.5 µg/mL
O=C(O)c1cn(C2CC2)c2c(F)c(N3CCSCC3)c(F)cc2c1=O | MIC |  | CSU15 |  | 0.25 µg/mL
COc1cc(NC(c2ccccc2)C(C(C)=O)N2CCOCC2)c2ncccc2c1 | MIC |  | H37Rv |  | 50 µg/mL
NC(=O)c1cnccn1 | MIC |  | Isolate 11743 monodrug-resistant |  | >300 µg/mL
O=C(O)c1ccc([N+](=O)[O-])cc1C(=O)O | MIC |  | H37Rv |  | >100 µg/mL
C[C@@H]1CN(c2c(F)c(N)c3c(=O)c(C(=O)O)cn(C4CC4)c3c2F)C[C@H](C)N1 | MIC |  | CSU21 |  | 0.25 µg/mL
CC1=NN(C(=O)c2ccccc2)C(=O)C1N=Nc1ccc([N+](=O)[O-])cc1 | inhibition | 12.8 µg/mL | H37Rv | BACTEC | 30%
NCC[C@H](O)C(=O)N[C@@H]1C[C@H](N)[C@@H](O[C@H]2O[C@H](CN)[C@@H](O)[C@H](O)[C@H]2O)[C@H](O)[C@H]1O[C@H]1O[C@H](CO)[C@@H](O)[C@H](N)[C@H]1O | MIC |  | 4S |  | 2.5 µg/mL
CCCCC(CC)CN1CN(CC(CC)CCCC)CC(C)(NCCNCc2ccccc2)C1 | MIC |  |  |  | 25 µM
CN(Cc1ccc(CO[C@@H]2COc3nc([N+](=O)[O-])cn3C2)cc1)Cc1ccc(OC(F)(F)F)cc1 | MIC90 |  |  | resazurin | 0.03 µM
COC(=O)C(CO)NC(=O)C(Cc1cnc[nH]1)NC(=O)CNC(=O)OCc1ccccc1 | MIC |  | H37Rv | BACTEC | ≥12.8 µg/mL
O=[N+]([O-])c1cn2c(n1)OC[C@@H](OCc1ccc(COc3ccc(OC(F)(F)F)cc3)nc1)C2 | MIC90 |  |  | resazurin | 0.03 µM
CCOc1cc2oc3cc(O)c(CCC(C)C)c(O)c3c(=O)c2c(CCC(C)C)c1OC | MIC |  | M5 | resazurin | 1.56 µg/mL
O=[N+]([O-])c1cn2c(n1)OC[C@@H](OCc1ccc(/C=C/c3ccc(C(F)(F)F)nc3)cc1)C2 | MIC90 |  |  | resazurin | 0.045 µM
CC(=O)Oc1cc2oc3cc(O)c(CCC(C)C)c(O)c3c(=O)c2c(CCC(C)C)c1C(C)=O | MIC |  | H37Ra | resazurin | 6.25 µg/mL
Nc1ccc(Nc2ccc(O)cc2)c(S(=O)(=O)O)c1 | MIC |  | H37Rv |  | >100 µg/mL
COc1ccccc1CCNCCNC[C@]1(C)CCC[C@]2(C)c3ccc(C(C)C)cc3CC[C@@H]12 | MIC |  |  |  | 25 µM
COc1ccc(/C(=N\NC(=O)C(=O)NN)C(c2ccc(OC)cc2)C2(O)C(=O)Nc3ccccc32)cc1 | inhibition | 12.5 µg/mL | H37Rv | BACTEC | 8%
CC(Cc1ccc(Cl)cc1)NCCNC[C@]1(C)CCC[C@]2(C)c3ccc(C(C)C)cc3CC[C@@H]12 | MIC |  |  |  | 50 µM
C[C@H]1COc2c(N3CCN(C)CC3)c(F)cc3c(=O)c(C(=O)O)cn1c23 | MIC |  | CSU22 |  | 0.5 µg/mL
Cc1cc(Br)ccc1NC1=CC(=O)C(=O)c2ccccc21 | MIC bound |  | H37Rv | resazurin | <6.25 µg/mL
Cl.Nc1ccc2nc[nH]c2c1 | MIC |  | H37Rv |  | >100 µg/mL
Clc1cc2nc(C3CCCO3)[nH]c2cc1Cl | MIC bound |  | H37Rv | resazurin | >6.25 µg/mL
COc1ccccc1C1SCC(=O)N1C(=O)NCCCN1c2ccccc2Sc2ccccc21 | inhibition | 50 µg/mL | H37Rv | agar | 50%
O=C1NN=CC1c1ccccc1 | MIC |  |  |  | >200 µg/mL
c1coc(CNCCNCc2ccco2)c1 | MIC |  |  |  | 25 µM
COc1ccc(CCc2cc(OC)c3ccccc3n2)cc1OC | MIC |  | MT4 |  | 77 µg/mL
CC(=O)NC[C@H]1CN(c2ccc(N3CCOCC3)c(F)c2)C(=O)O1 | MIC |  | 4S |  | 0.5 µg/mL
O=C(O)COc1ccccc1Cl | MIC |  | H37Rv |  | >100 µg/mL
O=C1C=CC(=O)c2[nH]cnc21 | inhibition | 12.5 µg/mL | H37Rv | BACTEC | 0%
NNC(=O)COc1cc(Cl)c(Cl)cc1Cl | MIC |  |  |  | >200 µg/mL
O=C1CSC(c2cccc([N+](=O)[O-])c2)N1C(=O)NCCCN1c2ccccc2Sc2ccccc21 | inhibition | 25 µg/mL | H37Rv | agar | 32%
O=[N+]([O-])c1c(Cl)ccc2cccnc12 | MIC |  | H37Rv |  | >100 µg/mL
COc1cc(C(=O)O)cc2c1OCC(=O)N2 | inhibition | 12.5 µg/mL | H37Rv | BACTEC | -3%
COc1cc2oc3cc(O)c(CCC(C)C)c(O)c3c(=O)c2c(CCC(C)C)c1OC | MIC |  | M27 | resazurin | 1.56 µg/mL
NCC(=O)NN | MIC |  |  |  | <40 µg/mL
O=C(O)CNc1nc2ccccc2s1 | MIC |  | H37Rv |  | 100 µg/mL
CCOc1ccc(C(=O)N/N=C/c2ccc(Cl)cc2)cc1 | MIC |  |  |  | >200 µg/mL
CCCOc1cc2oc3cc(O)c(CCC(C)C)c(O)c3c(=O)c2c(CCC(C)C)c1OC | MIC |  | H37Rv | resazurin | 3.12 µg/mL
N#Cc1ccc(C(=O)NN)cc1 | MIC |  |  |  | <40 µg/mL
CC(C)NC(=O)OCCN=C1c2ccccc2CCc2ccccc21 | MIC bound |  | H37Rv | BACTEC | >12.5 µg/mL
O=C(NCCCN1c2ccccc2Sc2ccccc21)N1C(=O)/C(=C\c2ccccc2O)SC1c1ccccc1O | inhibition | 25 µg/mL | H37Rv | agar | 25%
COc1cc2oc3cc(OC)c(C(C)=O)c(CCC(C)C)c3c(=O)c2c(O)c1CCC(C)C | MIC |  | H37Ra | resazurin | >200 µg/mL
CCOc1ccc(C(=O)N/N=C/c2ccc(O)cc2)cc1 | MIC |  |  |  | 40 µg/mL
CCCCCCCCC[C@@H]1CC(=O)NCC(=O)N[C@@H](C(C)C)C(=O)N[C@H](CC(C)C)C(=O)N[C@@H](C)C(=O)N[C@@H](C(C)C)C(=O)O1 | MIC bound |  | H37Rv | BACTEC | >12.8 µg/mL
O=C(NNC(=O)c1cc(Cl)ccc1Cl)c1cc(Cl)ccc1Cl | MIC |  |  |  | >200 µg/mL
CC(=O)Nc1ccc(OCC(=O)NN2C(=O)C(C)SC2c2ccc(O)cc2)cc1 | inhibition | 12.5 µg/mL | H37Rv |  | 0%
Cc1c([N+](=O)[O-])cc(I)c(N)c1I | MIC |  | H37Rv |  | >100 µg/mL
COc1cc(C2SCC(=O)N2NC(=O)COc2ccc(NC(C)=O)cc2)ccc1O | EC50 |  | H37Rv |  | >12.5 µg/mL
Nc1ccc(NCCNS(=O)(=O)c2ccccc2)cc1 | MIC |  | H37Rv |  | >100 µg/mL
O=C(NCCCN1c2ccccc2Sc2ccccc21)N1C(=O)/C(=C\c2cccc(O)c2)SC1c1cccc(O)c1 | inhibition | 50 µg/mL | H37Rv | agar | 70%
Cl.NCCOC(c1ccccc1)c1ccccc1 | MIC |  | H37Rv |  | 200 µg/mL
CCCCC(CC)CN1CN(CC(CC)CCCC)CC(C)(NCCNC2CCc3ccccc32)C1 | MIC |  |  |  | 25 µM
Cc1c(O)cc(C(=O)O)cc1[N+](=O)[O-] | MIC |  | H37Rv |  | >100 µg/mL
NNC(=O)c1ccc(O)cc1 | MIC |  |  |  | 40 µg/mL
COc1c(O)cc2oc3cc(O)c(CC=C(C)C)c(O)c3c(=O)c2c1CC=C(C)C | MIC |  | H37Ra | resazurin | 6.25 µg/mL
CCN=C1Nc2ccccc2-n2c(nn3nc4ccccc4c23)N1CC | inhibition | 6.25 µg/mL | H37Rv |  | -4%
CC1CC(C)CN(CCNCCC(c2ccccc2)c2ccccc2)C1 | MIC |  |  |  | 25 µM
C=CCN(CC=C)C(=O)Nc1ccc(C(=O)N/N=C/c2cccc(OC)c2OC)cc1 | MIC bound |  | H37Rv | resazurin | >6.25 µg/mL
Cl.N=C(N)SCc1ccccc1 | MIC |  | H37Rv |  | >100 µg/mL
CCOP(=O)(OCC)C1CCCN2CCc3cc(OC)c(OC)cc3C12.Cl | inhibition | 12.5 µg/mL | H37Rv | BACTEC | 0%
CC(=O)Nc1ccc(OCC(=O)NN2C(=O)CSC2c2cccc([N+](=O)[O-])c2)cc1 | inhibition | 12.5 µg/mL | H37Rv |  | 0%
Nc1ccc(C(=O)Nc2ccc(-c3ccc(NC(=O)c4ccc(N)cc4)c(S(=O)(=O)O)c3)cc2S(=O)(=O)O)cc1 | MIC |  | H37Rv |  | >100 µg/mL
NC(=O)c1cnccn1 | MIC |  | T6790 |  | 30 µg/mL
CCCCCCCCCCCCCCCCCC(=O)NSNC(=O)CCCCCCCCCCCCCCCCC | MIC |  | H37Rv |  | >100 µg/mL
COc1ccc(C2SCC(=O)N2NC(=O)COc2ccc(NC(C)=O)cc2)cc1 | inhibition | 12.5 µg/mL | H37Rv |  | 0%
C/C(=C/C(=O)c1ccccc1)NCc1ccccc1 | MIC |  | H37Rv |  | >100 µg/mL
O=C(N/N=C/c1ccc2c(c1)OCO2)c1ccncc1 | MIC |  | H37Rv | resazurin | 0.1 µg/mL
CCCCCc1cc(OC)c2ccccc2n1 | MIC |  | MT5 |  | 12.5 µg/mL
O=C1CN(CN2CCCCC2)C(=O)CN1CN1CCCCC1 | MIC bound |  | H37Rv | BACTEC | >12.5 µg/mL
CCCCCCCCC1(C)OC(=O)NC1=O | MIC |  | H37Rv |  | >100 µg/mL
CCOc1ccccc1CNCCNCCCCc1ccccc1 | MIC |  |  |  | 50 µM
C/C(O)=C(\C=N\C(=S)Nc1ccccc1)C(=O)Nc1ccccc1C | MIC bound |  | H37Rv | BACTEC | >6.25 µg/mL
CCCCOc1cc2oc3cc(OCCCC)c(OC)c(CCC(C)C)c3c(=O)c2c(O)c1CCC(C)C | MIC |  | H37Ra | resazurin | >200 µg/mL
CO[C@H]1/C=C/O[C@@]2(C)Oc3c(C)c(O)c4c(O)c(c5c(c4c3C2=O)NC2(CCN(CC(C)C)CC2)N=5)=NC(=O)/C(C)=C\C=C\[C@H](C)[C@H](O)[C@@H](C)[C@@H](O)[C@@H](C)[C@H](OC(C)=O)[C@@H]1C | MIC |  | Strain 120 121 (Q510H H526Y) |  | 32 µg/mL
COC(=O)N[C@H](C(=O)N[C@@H](Cc1ccccc1)[C@@H](O)CN(Cc1ccc(-c2ccccc2)cc1)NC(=O)[C@@H](NC(=O)OC)C(C)(C)C)C(C)(C)C | inhibition | 6.25 µg/mL | H37Rv | resazurin | 15%
CC(C)=CCC/C(C)=C/CNCCNC1CCCCCCC1 | MIC |  |  |  | 25 µM
O=C1C=C(Nc2cc(Cl)ccc2Cl)c2ccccc2C1=O | MIC bound |  | H37Rv | resazurin | >6.25 µg/mL
NCCNc1ccc([N+](=O)[O-])cc1 | MIC |  | H37Rv |  | >100 µg/mL

For reference, 5 entries again:

| structure | measure | dose | strain | method | result |
|---|---|---|---|---|---|
| CO[C@H]1/C=C/O[C@@]2(C)Oc3c(C)c(O)c4c(O)c(c5c(c4c3C2=O)NC2(CCN(CC(C)C)CC2)N=5)=NC(=O)/C(C)=C\C=C\[C@H](C)[C@H](O)[C@@H](C)[C@@H](O)[C@@H](C)[C@H](OC(C)=O)[C@@H]1C | MIC |  | Strain 120 121 (Q510H H526Y) |  | 32 µg/mL |
| C[C@H]1COc2c(N3CCN(C)CC3)c(F)cc3c(=O)c(C(=O)O)cn1c23 | MIC |  | CSU22 |  | 0.5 µg/mL |
| NNC(=O)COc1cc(Cl)c(Cl)cc1Cl | MIC |  |  |  | >200 µg/mL |
| CC(=O)NC[C@H]1CN(c2ccc(N3CCOCC3)c(F)c2)C(=O)O1 | MIC |  | 4S |  | 0.5 µg/mL |
| CSC(=S)N/N=C(\C)c1ccccn1 | MIC |  | H37Rv | BACTEC | 64 µg/mL |

Inhibition is in % at the dose shown (toxicity tests: loss of growth or viability). Lines come from different laboratories, so protocols vary. MIC50, MIC90 and the like: level of inhibition, or share of isolates inhibited. MIC bound comes from a single tested concentration. ECn is the concentration giving n% inhibition of infection, replication or growth.